Experiments:
mACE2 (H353K) (mouse) = mACE2 (H353K) (mouse) (UniProt Q8R0I0)
[1] = molecular target: kACE2 (T31K/F83Y) (koala)
[2] = molecular target: mACE2 (F83Y/H353K) (mouse) (UniProt Q8R0I0)

S1 domain of the SARS-CoV-2 spike C-terminally fused with Fc (from UniProt P0DTC2 14-685)
percent of ACE2-expressing (zsGreen1+) cells positive for S1-Fc (mACE2 (H353K) (mouse)): 50.3%
percent of ACE2-expressing (zsGreen1+) cells positive for S1-Fc [1]: 92.1%
percent of ACE2-expressing (zsGreen1+) cells positive for S1-Fc (kACE2 (T31K) (koala)): 73.8%
percent of ACE2-expressing (zsGreen1+) cells positive for S1-Fc [2]: 83.9%

Source: paper PMC7990223
